Patent US20070072830A1, “Methods for treating diabetes” (Point Therapeutics, Inc., priority 2004, published 2007)

System: human bone marrow stromal cells
Assay: G-CSF supernatant levels in human bone marrow stromal cell cultures
Assay type: cell-based
Conditions: 1 to 10^4 nM, 24 hours in vitro
Procedure: Human bone marrow stromal cell cultures. Samples of normal human bone marrow were purchased from Cambrex Bioproducts (Walkersville, Md.) and mononuclear cells were purified over Ficoll-Hypaque (Nycomed, Oslo, Norway). Human stromal layers were established by seeding 4×10^7 mononuclear cells into T75 flasks (Coming) containing 20 ml MyeloCult medium (Stem Cell Technologies, Vancouver, BC) supplemented with 10^−6 M hydrocortisone (Sigma) and incubation at 37° C. in 100% humidified 5% CO2 in air. After one week, half the medium was exchanged, and the cultures incubated for approximately one week more, after which time, a semi-confluent cell layer was formed. Stromal cells were harvested by trypsinization using standard technique and 10^5 cells/well were seeded in multi-well plates in 1 ml of fully supplemented DMEM (InVitrogen, Carlsbad, Calif.). […] Multiwell cultures without the addition of amino boronic dipeptides served as controls. […] Supernatant concentrations of human G-CSF were determined by Quantikine enzyme-linked immunosorbent assay (ELISA; R&D Systems, Minneapolis, Minn.) according to the manufacturer's instructions. […] The effect of each amino boronic dipeptide on the level of supernatant G-CSF was determined by calculating a stimulation index (SI): SI=(mean G-CSF concentration in culture with amino boronic dipeptide)/(mean G-CSF concentration in control culture).

N[C@@H](CCC(=O)O)C(=O)N1CCC[C@H]1B(O)O [Glu-boroPro]
Stimulation of G-CSF levels in culture supernatants (stimulation index): did not appear to stimulate increased levels of G-CSF
